Single amino acid changes in Zika NS2B-NS3 and viral growth

Protein: NS2B and the protease part of NS3 of Zika virus strain MR766. Positions count along the chain below; NS2B spans 2-131 and NS3 starts at 132.
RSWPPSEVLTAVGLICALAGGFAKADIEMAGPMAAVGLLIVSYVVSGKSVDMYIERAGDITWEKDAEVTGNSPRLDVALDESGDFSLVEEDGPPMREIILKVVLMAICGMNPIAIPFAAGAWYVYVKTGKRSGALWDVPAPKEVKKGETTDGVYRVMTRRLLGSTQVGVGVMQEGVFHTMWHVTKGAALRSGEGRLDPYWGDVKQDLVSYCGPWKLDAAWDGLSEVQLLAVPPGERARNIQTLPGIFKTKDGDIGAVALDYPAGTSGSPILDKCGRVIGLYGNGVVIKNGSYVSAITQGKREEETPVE

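Pools of virus carrying all single amino acid changes were selected for growth in Huh-7.5 cells. Deep sequencing gave the change in frequency of each mutant relative to wild type, averaged over three replicate libraries (two for positions 207-308). The aim was to find sites where inhibitor-binding pockets cannot change.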

The number is log2 of the effect relative to wild type; negative values mean reduced growth, higher values better tolerance. Substitutions are written as wild-type residue, site number, new residue. All changes here are to serine. The region was split into three libraries (1-103, 104-206, 207-308). Values above 0 are not proof of better growth: six high scorers were tested one by one, five grew less well than wild type and one about as well. Position 1 still belongs to NS2A. In the paper, -1 or higher counts as tolerated.

For G264S the result was -6.19. For T265S the result was 0.37. With G267S the assay gave -6.81. P269S gave -5.97. I270S gave -5.68. L271S gave -5.73. For D272S the result was -3.31. K273S gave -1.55. With C274S the assay gave -0.44.

G275S gave -0.52. R276S gave -2.76. V277S gave -5.97. For I278S the result was -5.89. G279S gave -6.01. L280S gave -6.94. Y281S read -6.86. For G282S the result was -5.93. N283S gave -6.76.

With G284S the assay gave -6.27. V285S read -5.93. For V286S the result was -6.41. For I287S the result was -0.07. With K288S the assay gave 0.02. N289S gave -4.64. With G290S the assay gave -6.77. Y292S read -6.05. V293S read -6.28.

A295S read -6.69. For I296S the result was -6.03. With T297S the assay gave -0.04. For Q298S the result was -5.64. G299S gave -4.80. With K300S the assay gave -5.27. With R301S the assay gave -7.22. E302S gave 0.00. With E303S the assay gave -0.67.

For E304S the result was -0.38. T305S gave 0.20. For P306S the result was -1.40. For V307S the result was -0.83. With E308S the assay gave 0.33.

The opening 4 entries, copied out:

G264S read -6.19.
T265S read 0.37.
G267S read -6.81.
P269S read -5.97.

Source: Ni et al. 2025 (doi:10.1038/s41467-025-63602-z), supplementary data.